## Kdimer by position in the HIV-1 leader RNA

The measurements come from Ye et al. 2022 (doi:10.1038/s41594-022-00746-2).

RNA: 5' end of the HIV-1 NL4-3 genome, made in vitro. Positions 1-437 read:
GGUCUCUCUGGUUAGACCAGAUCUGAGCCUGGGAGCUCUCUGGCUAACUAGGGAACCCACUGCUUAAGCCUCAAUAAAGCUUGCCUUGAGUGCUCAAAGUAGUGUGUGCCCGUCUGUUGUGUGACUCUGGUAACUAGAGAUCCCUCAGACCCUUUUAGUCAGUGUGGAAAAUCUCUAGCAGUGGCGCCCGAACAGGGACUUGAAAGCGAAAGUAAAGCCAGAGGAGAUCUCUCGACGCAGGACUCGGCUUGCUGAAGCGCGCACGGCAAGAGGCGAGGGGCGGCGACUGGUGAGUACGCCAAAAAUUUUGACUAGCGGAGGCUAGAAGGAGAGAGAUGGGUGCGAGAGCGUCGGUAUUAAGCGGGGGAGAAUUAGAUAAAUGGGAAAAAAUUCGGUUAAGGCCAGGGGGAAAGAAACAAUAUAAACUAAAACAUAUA

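Mutant RNA libraries with 1G, 2G or 3G starts, with or without cap, were folded at 37 °C for 30 min. High salt was 300 mM KCl and 5 mM MgCl2, low salt 40 mM KCl and 0.1 mM MgCl2; monomer and dimer were parted on a native gel. Kdimer compares mutation frequencies in monomer and dimer, corrected for sequencing errors.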

Scale: median log2 Kdimer over the changes at a position; positive = changes inhibit dimerization, negative = changes enhance it. One numbering serves 1G, 2G and 3G. A position is written with its base.

With G367 the assay gave 1G capped low-salt 0.19; 2G capped high-salt 0.15; 2G uncapped high-salt 0.31.
With A368 the assay gave 1G capped low-salt 0.13; 2G capped high-salt 0.22; 2G uncapped high-salt 0.14.
With G369 the assay gave 1G capped low-salt 0.12; 2G capped high-salt 0.10; 2G uncapped high-salt 0.17.
With A370 the assay gave 1G capped low-salt -0.01; 2G capped high-salt 0.15; 2G uncapped high-salt 0.13.
With A371 the assay gave 1G capped low-salt -0.19; 2G capped high-salt 0.01; 2G uncapped high-salt -0.14.
With U372 the assay gave 1G capped low-salt -0.14; 2G capped high-salt -0.11; 2G uncapped high-salt 0.01.
With U373 the assay gave 1G capped low-salt 0.02; 2G capped high-salt -0.09; 2G uncapped high-salt -0.03.
With A374 the assay gave 1G capped low-salt 0.04; 2G capped high-salt 0.10; 2G uncapped high-salt 0.09.
With G375 the assay gave 1G capped low-salt -0.09; 2G capped high-salt 0.12; 2G uncapped high-salt 0.03.
With A376 the assay gave 1G capped low-salt -0.19; 2G capped high-salt 0.06; 2G uncapped high-salt 0.05.
With U377 the assay gave 1G capped low-salt 0.03; 2G capped high-salt -0.09; 2G uncapped high-salt 0.17.
With A378 the assay gave 1G capped low-salt 0.14; 2G capped high-salt -0.04; 2G uncapped high-salt 0.04.
With A379 the assay gave 1G capped low-salt -0.05; 2G capped high-salt -0.06; 2G uncapped high-salt 0.02.
With A380 the assay gave 1G capped low-salt -0.12; 2G capped high-salt 0.06; 2G uncapped high-salt 0.01.
With U381 the assay gave 1G capped low-salt -0.22; 2G capped high-salt 0.07; 2G uncapped high-salt -0.04.
With G382 the assay gave 1G capped low-salt 0.15; 2G capped high-salt -0.04; 2G uncapped high-salt 0.10.
With G383 the assay gave 1G capped low-salt 0.14; 2G capped high-salt 0.19; 2G uncapped high-salt 0.13.
With G384 the assay gave 1G capped low-salt -0.13; 2G capped high-salt -0.32; 2G uncapped high-salt -0.16.
With A385 the assay gave 1G capped low-salt -0.41; 2G capped high-salt 0.00; 2G uncapped high-salt -0.04.
With A386 the assay gave 1G capped low-salt 0.03; 2G capped high-salt 0.03; 2G uncapped high-salt 0.05.
With A387 the assay gave 1G capped low-salt -0.08; 2G capped high-salt 0.02; 2G uncapped high-salt 0.04.
With A388 the assay gave 1G capped low-salt 0.17; 2G capped high-salt 0.04; 2G uncapped high-salt 0.03.

The opening 3 entries, copied out:

position	domain	1G capped low-salt	2G capped high-salt	2G uncapped high-salt
G367	none	0.19	0.15	0.31
A368	none	0.13	0.22	0.14
G369	none	0.12	0.10	0.17